Test results reported in patent US9061967B2 (priority 2010, dated 2015).

Experiments:
[1] = tested on: cucumber downy mildew (Pseudoperonospora cubensis); test: Protectant activity in vivo against cucumber downy mildew; conditions: for Protectant activity (%) against cucumber downy mildew in vivo: Table 7
[2] = tested on: corn rust (Puccinia sorghi); test: Protectant activity in vivo against corn rust; conditions: for Protectant activity (%) against corn rust in vivo: Table 8
[3] = tested on: cucumber gray mold (Botrytis cinerea); test: Activity in vitro, inhibition rate against cucumber gray mold; assay type: cell-based; conditions: for Inhibition rate against cucumber gray mold (%): Table 9; for inhibition rate against cucumber gray mold: dose 0.3 mg/L
[4] = tested on: rice blast (Magnaporthe grisea); test: Activity in vitro, inhibition rate against rice blast; assay type: cell-based; conditions: for Inhibition rate against rice blast (%): Table 9
[5] = tested on: rice sheath blight (Rhizoctonia solani Palo); test: Activity in vitro against rice sheath blight; assay type: cell-based
[6] = tested on: corn southern leaf blight (Helminthosporium maydis); test: Activity in vitro against corn southern leaf blight; assay type: cell-based
[7] = tested on: cucumber fusarium wilt (Fusarium oxysporum f. sp.); test: Activity in vitro against cucumber fusarium wilt; assay type: cell-based
[8] = tested on: pear scab (Fusicladium pirina); test: Activity in vitro against pear scab; assay type: cell-based
[9] = tested on: cotton nthracnose (Colletotrichum gossypii Southw.); test: Activity in vitro against cotton anthracnose; assay type: cell-based
[10] = tested on: cotton verticillium wilt (Verticillium dahliae Kleb); test: Activity in vitro against cotton verticillium wilt; assay type: cell-based
[11] = tested on: rape sclertiniose (Sclerotinia sclerotiorum); test: Activity in vitro against rape sclertiniose; assay type: cell-based
[12] = tested on: cucumber anthracnose (Colletotrichum lagenarium); test: Protectant activity in vivo against cucumber anthracnose; conditions: dose 400 mg/L

Cc1c(Cl)c([N+](=O)[O-])cc([N+](=O)[O-])c1Nc1c([N+](=O)[O-])cc(C(F)(F)F)c(Cl)c1[N+](=O)[O-]
protectant activity against cucumber downy mildew in vivo ([1]; dose 100 mg/L): 100% | protectant activity against cucumber downy mildew in vivo ([1]; dose 400 mg/L): 100% | protectant activity against corn rust in vivo ([2]; dose 400 mg/L): 100%

Cc1c(Cl)c([N+](=O)[O-])cc([N+](=O)[O-])c1Nc1c(Cl)cc(Cl)cc1[N+](=O)[O-]
Inhibition rate against cucumber gray mold (%) ([3]; 0.03 mg/L): 0% | Inhibition rate against cucumber gray mold (%) ([3]; 0.1 mg/L): 50% | Inhibition rate against cucumber gray mold (%) ([3]; 0.3 mg/L): 80% | inhibition rate against cucumber gray mold [3]: 80% | Protectant activity (%) against cucumber downy mildew in vivo ([1]; 3.125 mg/L): 65% | Protectant activity (%) against cucumber downy mildew in vivo ([1]; 12.5 mg/L): 80% | Protectant activity (%) against cucumber downy mildew in vivo ([1]; 50 mg/L): 100% | protectant activity against cucumber downy mildew in vivo ([1]; dose 50 mg/L): 100% | protectant activity against cucumber downy mildew in vivo ([1]; dose 100 mg/L): 100% | protectant activity against cucumber downy mildew in vivo ([1]; dose 400 mg/L): 100% | Protectant activity (%) against corn rust in vivo ([2]; 6.25 mg/L): 0% | Protectant activity (%) against corn rust in vivo ([2]; 25 mg/L): 20% | Protectant activity (%) against corn rust in vivo ([2]; 100 mg/L): 70% | protectant activity against corn rust in vivo ([2]; dose 400 mg/L): 100%

Cc1c(Cl)c([N+](=O)[O-])cc([N+](=O)[O-])c1Nc1c(Cl)cc([N+](=O)[O-])cc1Cl
Inhibition rate against rice blast (%) ([4]; 0.03 mg/L): 80% | Inhibition rate against rice blast (%) ([4]; 0.3 mg/L): 100% | inhibition rate against rice blast ([4]; dose 0.03 mg/L): 80% | Inhibition rate against cucumber gray mold (%) ([3]; 0.03 mg/L): 50% | Inhibition rate against cucumber gray mold (%) ([3]; 0.1 mg/L): 100% | Inhibition rate against cucumber gray mold (%) ([3]; 0.3 mg/L): 100% | inhibition rate against cucumber gray mold [3]: 100% | Protectant activity (%) against cucumber downy mildew in vivo ([1]; 3.125 mg/L): 90% | Protectant activity (%) against cucumber downy mildew in vivo ([1]; 12.5 mg/L): 100% | Protectant activity (%) against cucumber downy mildew in vivo ([1]; 50 mg/L): 100% | protectant activity against cucumber downy mildew in vivo ([1]; dose 12.5 mg/L): 100% | protectant activity against cucumber downy mildew in vivo ([1]; dose 50 mg/L): 100% | protectant activity against cucumber downy mildew in vivo ([1]; dose 100 mg/L): 100% | protectant activity against cucumber downy mildew in vivo ([1]; dose 400 mg/L): 100% | protectant activity against corn rust in vivo ([2]; dose 100 mg/L): 100% | protectant activity against corn rust in vivo ([2]; dose 400 mg/L): 100% | Activity in vitro (%), rice sheath blight ([5]; 0.1 mg/L): 74% | Activity in vitro (%), rice sheath blight ([5]; 1 mg/L): 95% | Activity in vitro (%), rice sheath blight ([5]; 10 mg/L): 100% | Activity in vitro (%), corn southern leaf blight ([6]; 0.1 mg/L): 54% | Activity in vitro (%), corn southern leaf blight ([6]; 1 mg/L): 100% | Activity in vitro (%), corn southern leaf blight ([6]; 10 mg/L): 100% | Activity in vitro (%), cucumber fusarium wilt ([7]; 0.1 mg/L): 79% | Activity in vitro (%), cucumber fusarium wilt ([7]; 1 mg/L): 91% | Activity in vitro (%), cucumber fusarium wilt ([7]; 10 mg/L): 99% | Activity in vitro (%), pear scab ([8]; 0.1 mg/L): 87% | Activity in vitro (%), pear scab ([8]; 1 mg/L): 99% | Activity in vitro (%), pear scab ([8]; 10 mg/L): 100% | Activity in vitro (%), cotton nthracnose ([9]; 0.1 mg/L): 94% | Activity in vitro (%), cotton nthracnose ([9]; 1 mg/L): 100% | Activity in vitro (%), cotton nthracnose ([9]; 10 mg/L): 100% | Activity in vitro (%), cotton verticillium wilt ([10]; 0.1 mg/L): 82% | Activity in vitro (%), cotton verticillium wilt ([10]; 1 mg/L): 100% | Activity in vitro (%), cotton verticillium wilt ([10]; 10 mg/L): 100% | Activity in vitro (%), rape sclertiniose ([11]; 0.1 mg/L): 88% | Activity in vitro (%), rape sclertiniose ([11]; 1 mg/L): 100% | Activity in vitro (%), rape sclertiniose ([11]; 10 mg/L): 100% | protectant activity against cucumber anthracnose in vivo [12]: 100%
